Pooled drug test results. Numbers come from NIAID ChemDB, via PubChem.

Common to all: whole-cell or culture tests; organism: Candida albicans

MIC50, MIC90 and the like: level of inhibition, or share of isolates inhibited. An empty or dashed field is not shown. a–b is a range or a potency band. Conditions beyond the fields shown may differ between rows.

compound,read-out,read by,strain,value
CC1(c2ccc(Cl)cc2Cl)OCC(CO/N=C(\Cn2ccnc2)c2ccc(Cl)cc2)O1,MIC,,,≤10 µg/mL
Clc1ccc(C(c2cccc3ccccc23)n2ccnc2)s1,MIC50,,23 strains,4 µg/mL
COC1CC2CCC(C)C(O)(O2)C(=O)C(=O)N2CCCCC2C(=O)OC(C(C)CC2CCC(O)C(OC)C2)CC(=O)C(C)/C=C(\C)C(O)C(OC)C(=O)C(C)C[C@](C)(N(O)C(=O)NN2CCCCC2)/C=C/C=C/C=C/1C,MFC,,TOR1-1/TOR1,>100 µg/mL
O=C(NN1C(=O)/C(=C\c2ccccc2)SC1c1ccccc1)c1ccc(-c2ccccc2)cc1,MIC,,MTCC 8184,3.12 µg/mL
Cc1ccc(C2CC(c3ccc4ccccc4c3)=Cc3[nH][nH]c(=O)c32)cc1,MIC,,,25 µg/mL
Clc1ccc(/C(Cn2ccnc2)=N/OCC2COC(Cn3ccnc3)(c3ccc(Cl)cc3Cl)O2)c(Cl)c1,MIC,,,≤5 µg/mL
Cc1ccc(C(c2cccc3ccccc23)n2ccnc2)cc1,MIC90,,23 strains,32 µg/mL
CC1(C)OCC(CO/N=C(\Cn2cncn2)c2ccc(Cl)cc2Cl)O1,MIC,,,≤10 µg/mL
O=c1[nH][nH]c2c1C(c1ccc([N+](=O)[O-])cc1)CC(c1ccc3ccccc3c1)=C2,MIC,,,50 µg/mL
C[C@H]1[C@H](O)[C@@H](C)/C=C/C=C/C=C/C=C/C=C/C=C/C=C/[C@H](O[C@@H]2O[C@H](C)[C@@H](O)[C@H](N)[C@@H]2O)C[C@@H]2O[C@](O)(C[C@@H](O)C[C@@H](O)CC[C@H](O)[C@@H](O)C[C@@H](O)CC(=O)O[C@H]1C)C[C@H](O)[C@H]2C(=O)O,MIC,,1208E,0.03 µg/mL
NC(=NC1CCCC1)c1ccc(-c2ccc(-c3ccc(C(N)=NC4CCCC4)cc3)o2)cc1,MFC,,Isolate CA1548,100 µg/mL
O=C(NN1C(=O)/C(=C\c2cccc(Br)c2)SC1c1cccc(Br)c1)c1ccc(-c2ccccc2)cc1,MIC,,MTCC 8184,1.56 µg/mL
C[C@@H](SC1COC(/C=C/C=C/c2ccc(C#N)cc2F)OC1)[C@](O)(Cn1cncn1)c1ccc(F)cc1F,MIC,,TIMM3164,<0.008 µg/mL
Clc1ccc(C(c2ccc3ccccc3c2)n2ccnc2)s1,Mean MIC,,23 strains,3.84 µg/mL
CCC(C)[C@H](N)CC(=O)N[C@@H](CC)NC(=O)N[C@@H](CCCCN)CC(=O)N[C@H](CC(=O)N[C@@H](CC)NC(=O)N[C@@H](CCCCN)CC(=O)N[C@H](CC(=O)N[C@@H](CC)NC(=O)N[C@@H](CCCCN)CC(N)=O)C(C)CC)C(C)CC,MIC,XTT / broth dilution,SC5314,>128 µg/mL
O=C(NN1C(=O)/C(=C\c2cccc([N+](=O)[O-])c2)SC1c1cccc(Br)c1)c1ccc(-c2ccccc2)cc1,MIC,,MTCC 8184,1.56 µg/mL
O=C1C2=C(OC(CI)C2)C(=O)c2ccccc21,MIC,broth dilution,Clinical isolate,12 µg/mL
CC(C)[C@@H](NC(=O)N[C@@H](CCCN=C(N)N)CC(N)=O)NC(=O)[C@H]1CCCC[C@@H]1N,MIC,XTT / broth dilution,SC5314,8 µg/mL
Fc1ccc(C(c2ccc3ccccc3c2)n2ccnc2)cc1,MIC90,,23 strains,16 µg/mL
CC1(c2ccccc2Cl)OCC(CO/N=C(\Cn2ccnc2)c2ccc(Cl)cc2Cl)O1,MIC,,,≤10 µg/mL
CC(C)[C@@H](NC(=O)N[C@@H](CCCCN)CC(N)=O)NC(=O)[C@H]1CCCC[C@@H]1N,MIC,XTT / broth dilution,SC5314,8 µg/mL
C[C@@H](CC1COC(/C=C/C=C/c2ccc(C#N)cc2F)OC1)[C@](O)(Cn1cncn1)c1ccc(F)cc1F,MIC,,TIMM3165,0.125–0.25 µg/mL
COC(=O)c1c(C)oc2cc(C(=O)C(Cl)Cl)c(O)c(Cl)c12,MIC,,ATCC 90028,100 µg/mL
c1csc(C(c2ccc3ccccc3c2)n2ccnc2)c1,Mean MIC,,23 strains,8 µg/mL
CC(C)[C@@H](NC(=O)N[C@@H](CCCN=C(N)N)CC(N)=O)NC(=O)[C@H]1CCCC[C@@H]1NC(=O)C[C@H](CCCN=C(N)N)NC(=O)N[C@@H](NC(=O)[C@H]1CCCC[C@@H]1NC(=O)C[C@H](CCCN=C(N)N)NC(=O)N[C@@H](NC(=O)[C@H]1CCCC[C@@H]1NC(=O)C[C@@H](N)Cc1ccc(O)cc1)C(C)C)C(C)C,MIC,XTT / broth dilution,SC5314,8 µg/mL
C[C@@H]1CCC2(OC1)OC1CC3C4C[C@H](O)[C@H]5C[C@@H](O)CC[C@]5(C)C4CC(=O)[C@]3(C)C1[C@@H]2C,MIC,,ATCC 90028,10 µg/mL
COC1CC2CCC(C)C(O)(O2)C(O)C(O)N2CCCCC2C(=O)OC(C(C)CC2CCC(O)C(OC)C2)CC(=O)C(C)/C=C(\C)C(O)C(OC)C(=O)C(C)CC(C)/C=C/C=C/C=C/1C,MIC,,WILD TYPE,6.25 µg/mL
c1ccc(C(c2cccc3ccccc23)n2ccnc2)cc1,MIC50,,23 strains,8 µg/mL

A second listing of 3 rows from above:

compound | read-out | read by | strain | value
CCC(C)[C@H](N)CC(=O)N[C@@H](CC)NC(=O)N[C@@H](CCCCN)CC(=O)N[C@H](CC(=O)N[C@@H](CC)NC(=O)N[C@@H](CCCCN)CC(=O)N[C@H](CC(=O)N[C@@H](CC)NC(=O)N[C@@H](CCCCN)CC(N)=O)C(C)CC)C(C)CC | MIC | XTT / broth dilution | SC5314 | >128 µg/mL
COC1CC2CCC(C)C(O)(O2)C(=O)C(=O)N2CCCCC2C(=O)OC(C(C)CC2CCC(O)C(OC)C2)CC(=O)C(C)/C=C(\C)C(O)C(OC)C(=O)C(C)C[C@](C)(N(O)C(=O)NN2CCCCC2)/C=C/C=C/C=C/1C | MFC |  | TOR1-1/TOR1 | >100 µg/mL
Clc1ccc(/C(Cn2ccnc2)=N/OCC2COC(Cn3ccnc3)(c3ccc(Cl)cc3Cl)O2)c(Cl)c1 | MIC |  |  | ≤5 µg/mL